Tests used:
[1] = target: T1, S-protein RBD from the original Wuhan strain (SARS-CoV-2, UniProt P0DTC2, biotin (only in the ACE-2 competition ELISA)); assay: ELISA; details: both partners purified
T1 construct: also called Wuhan RBD

[2] = target: recombinant SARS-CoV-2 RBD (crystallised with Fab J08) (SARS-CoV-2, UniProt P0DTC2); assay: crystal structure; details: both partners purified

B1: mAb J08 immunoglobulin G (IgG) (antibody, V domains shown)
VH: QVQLVQSGAEVKKPGSSVKVSCKASGGTFSSYTISWVRQAPGQGLEWMGRIIPILDRVMYAQKFQGRVTITADKSTSTAYMELSSLRSEDTAVYYCARRAIDSDTYVEQSHFDYWGQGTLVTVSS
VL: EIVMTQSPATLSLSPGERATLSCRASQSVSSYLAWYQQKPGQAPSLLIYDASNRATGIPARFSGSGSGTDFTLTISSLEPEDFAVYYCQQPLTFGGGTKVEIK
notes: also called J08 IgG; wild-type J08; copies: 2 + 2
Q: Does B1 bind [1]?
A: binds

B2: Fab J08 (fragment antigen binding of mAb J08) (Fab, V domains shown)
VH: B1 VH
VL: B1 VL
Q: Does B2 bind [2]?
A: binds

— paper PMC9171815, “Structural insights of a highly potent pan-neutralizing SARS-CoV-2 human monoclonal antibody” (Proceedings of the National Academy of Sciences of the …, 2022)
